Series [1] concerns the target Neuronal acetylcholine receptor; alpha9/alpha10 (Homo sapiens, UniProt Q9UGM1+Q9GZZ6). Briefly: Antagonist activity at human alpha9alpha10 nAChR expressed in Xenopus laevis oocytes assessed as inhibition of Ach-induced response measured after 5 mins by two electrode voltage-clamp assay. In general terms: Two-electrode voltage clamp holds a large cell at a set potential and records current.

By UniProt entry, the sequences of proteins in these tests, tags left out. Residues count along the entry.
UniProt Q9UGM1, 23-479 limits assumed: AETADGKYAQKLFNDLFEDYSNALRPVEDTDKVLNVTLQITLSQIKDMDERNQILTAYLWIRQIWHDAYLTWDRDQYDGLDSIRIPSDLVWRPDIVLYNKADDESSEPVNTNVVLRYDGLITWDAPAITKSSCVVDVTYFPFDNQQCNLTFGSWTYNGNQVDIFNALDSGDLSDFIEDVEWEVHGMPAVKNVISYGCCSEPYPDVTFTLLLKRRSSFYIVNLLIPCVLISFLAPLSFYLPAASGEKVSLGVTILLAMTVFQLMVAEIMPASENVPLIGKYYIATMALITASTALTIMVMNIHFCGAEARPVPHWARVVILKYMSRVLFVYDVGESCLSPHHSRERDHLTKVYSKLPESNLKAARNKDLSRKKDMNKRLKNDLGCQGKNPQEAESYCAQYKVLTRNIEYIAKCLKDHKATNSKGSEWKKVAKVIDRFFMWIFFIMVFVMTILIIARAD
UniProt Q9GZZ6, 25-450 limits assumed: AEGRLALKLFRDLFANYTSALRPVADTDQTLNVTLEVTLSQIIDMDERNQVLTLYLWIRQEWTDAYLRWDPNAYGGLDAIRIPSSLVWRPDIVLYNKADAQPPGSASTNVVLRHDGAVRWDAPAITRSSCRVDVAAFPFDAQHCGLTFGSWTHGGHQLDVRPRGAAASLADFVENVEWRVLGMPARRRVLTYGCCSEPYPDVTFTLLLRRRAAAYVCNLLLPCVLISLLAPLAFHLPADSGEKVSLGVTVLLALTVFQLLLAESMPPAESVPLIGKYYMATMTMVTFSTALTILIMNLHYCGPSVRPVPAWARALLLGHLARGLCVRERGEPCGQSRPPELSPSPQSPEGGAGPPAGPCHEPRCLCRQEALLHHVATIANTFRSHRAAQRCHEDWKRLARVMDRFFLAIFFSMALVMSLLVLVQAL

A short description of series [2]: Stability in 90% human serum assessed as proteolytic degradation at 0.1 mg/ml measured up to 24 hrs by RP-HPLC analysis.

Molecules are shown by their SMILES.

For orientation: IC50 means the concentration needed to halve the response being measured. As for `C[C@@H](O)[C@H](NC(=O)[C@H](CS)NC(=O)[C@H](CS)NC(=O)CN)C(=O)N[C@@H](CC(=O)O)C(=O)N1CCC[C@H]1C(=O)N[C@@H](CCCNC(=N)N)C(=O)N[C@@H](CS)C(=O)N[C@@H](CCCNC(N)=O)C(=O)N[C@@H](Cc1ccc(O)c(I)c1)C(=O)N[C@@H](CCC(N)=O)C(=O)N[C@@H](CS)C(=O)N[C@@H](Cc1ccc(O)cc1)C(=O)O`, the 50% inhibitory concentration (IC50) in series [1] came out at 1.5 nM. Further, the Stability entry in series [2] was “Stable”.

Consider `C[C@@H](O)[C@@H]1NC(=O)[C@@H]2CSSC[C@@H]3NC(=O)[C@H](CCC(N)=O)NC(=O)[C@H](Cc4ccc(O)c(I)c4)NC(=O)[C@H](CCCNC(=N)N)NC(=O)[C@H](CSSC[C@H](NC(=O)CNC(=O)[C@@H](N)CCC(=O)NCCCC[C@H](C(=O)O)NC(=O)[C@H](Cc4ccc(O)cc4)NC3=O)C(=O)N2)NC(=O)[C@H](CCCNC(=N)N)NC(=O)[C@@H]2CCCN2C(=O)[C@H](CC(=O)O)NC1=O`, for which the Stability result in series [2] was “Stable”.

Source of the values: ChEMBL document CHEMBL4622924, “Development of Conformationally Constrained α-RgIA Analogues as Stable Peptide Antagonists of Human α9α10 Nicotinic Acetylcholine Receptors” (2020).
